Measured values from publication PMC10150623 (Journal of Enzyme Inhibition and Medicinal Chemistry, 2023).

By UniProt entry, the sequences of proteins in these tests, tags left out. Residues count along the entry.
UniProt P0DPI0, 1-448 limits assumed: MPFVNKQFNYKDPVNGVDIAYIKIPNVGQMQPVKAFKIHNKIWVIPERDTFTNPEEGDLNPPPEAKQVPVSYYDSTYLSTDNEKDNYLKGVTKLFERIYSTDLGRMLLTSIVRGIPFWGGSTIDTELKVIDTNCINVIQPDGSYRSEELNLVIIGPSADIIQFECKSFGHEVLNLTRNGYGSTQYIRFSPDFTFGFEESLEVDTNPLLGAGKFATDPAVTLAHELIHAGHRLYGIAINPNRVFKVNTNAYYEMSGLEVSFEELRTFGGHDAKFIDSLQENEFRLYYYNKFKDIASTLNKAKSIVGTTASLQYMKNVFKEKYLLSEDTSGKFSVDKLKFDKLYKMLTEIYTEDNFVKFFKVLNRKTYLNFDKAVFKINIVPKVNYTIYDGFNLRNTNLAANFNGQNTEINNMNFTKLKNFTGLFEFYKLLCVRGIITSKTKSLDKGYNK

Target: BoNT/A LC (1–448 aa) (Clostridium botulinum, UniProt P0DPI0)

Compound: N=C(N)NCCC[C@H](NC(=O)[C@@H](N)CCCNC(=N)N)C(=O)NCC(=O)N[C@@H](Cc1c[nH]c2ccccc12)C(=O)O [RRGW]
- Ki: 790 nM
